Results: PubChem BioAssay AID1159560 (GlaxoSmithKline (GSK), 2015)
The source made the active and inactive calls. No rule for the calls is given here.

System: Leishmania donovani growth inhibition
Assay: antileishmanial activity against L. donovani parasites (AID 1159560);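 also: parasites exposed to compound for 72 h before the viability read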

In the case of `CC(C)(C)c1ccc(NC2(C(N)=O)CCN(Cc3ccccc3)CC2)cc1`, the IC50 is reported as inactive: > 50 µM.
